{"source": "PubChem BioAssay AID624099 (ICCB-Longwood, 2012)", "test": "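Host factors E2 relies on to silence an HPV18 LCR reporter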 (primary screen)", "cell system": "human C33A cervical carcinoma cells (HPV-negative) stably expressing BPV1 E2 and an HPV18 LCR luciferase reporter", "reagents": "siRNA pool against human genes, 40 nM", "timing": "72 h", "measured": "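HPV18 LCR reporter light per well, converted to plate-wise z-scores that exclude control wells, and averaged over triplicate plates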", "scale": "mean z-score and z-score: higher = stronger reporter signal, weaker E2 silencing", "active means": "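Mean z ≥ 2 together with z ≥ 2 in two or more of the three replicates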", "note": "Shown is a random part of about 21,000 deposited reagents. 497 of all reagents (2.4%) count as active. 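Higher z means weaker E2 silencing; only reporter increases were scored, and knock-downs that hurt cell survival may mask genuine repressor factors.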 Reagents against one gene are numbered here."}
The first 3 records, to show the layout:
{"Target gene":"HOXA13","pool no.":1,"mean z-score":1.03,"z-score, replicate A":0.81,"z-score, replicate B":1.23,"z-score, replicate C":1.05,"call":"inactive"}
{"Target gene":"CHMP1B","pool no.":1,"mean z-score":-1.13,"z-score, replicate A":-1.35,"z-score, replicate B":-0.93,"z-score, replicate C":-1.11,"call":"inactive"}
{"Target gene":"MON1A","pool no.":1,"mean z-score":-0.66,"z-score, replicate A":-0.84,"z-score, replicate B":-0.61,"z-score, replicate C":-0.55,"call":"inactive"}

The listing, repeating the preview:
{"Target gene":"HOXA13","pool no.":1,"mean z-score":1.03,"z-score, replicate A":0.81,"z-score, replicate B":1.23,"z-score, replicate C":1.05,"call":"inactive"}
{"Target gene":"CHMP1B","pool no.":1,"mean z-score":-1.13,"z-score, replicate A":-1.35,"z-score, replicate B":-0.93,"z-score, replicate C":-1.11,"call":"inactive"}
{"Target gene":"MON1A","pool no.":1,"mean z-score":-0.66,"z-score, replicate A":-0.84,"z-score, replicate B":-0.61,"z-score, replicate C":-0.55,"call":"inactive"}
{"Target gene":"AKIRIN2","pool no.":1,"mean z-score":-0.25,"z-score, replicate A":-0.6,"z-score, replicate B":-0.35,"z-score, replicate C":0.19,"call":"inactive"}
{"Target gene":"LOC399961 (retired record)","pool no.":1,"mean z-score":-0.17,"z-score, replicate A":-0.56,"z-score, replicate B":0.02,"z-score, replicate C":0.04,"call":"inactive"}
{"Target gene":"H3-3B","pool no.":1,"mean z-score":0.37,"z-score, replicate A":0.92,"z-score, replicate B":0.02,"z-score, replicate C":0.18,"call":"inactive"}
{"Target gene":"CYC1","pool no.":1,"mean z-score":-1,"z-score, replicate A":-0.98,"z-score, replicate B":-1.08,"z-score, replicate C":-0.96,"call":"inactive"}
{"Target gene":"ZNF112","pool no.":1,"mean z-score":0.61,"z-score, replicate A":0.44,"z-score, replicate B":0.49,"z-score, replicate C":0.9,"call":"inactive"}
{"Target gene":"CLOCK","pool no.":1,"mean z-score":-1,"z-score, replicate A":-1.08,"z-score, replicate B":-0.95,"z-score, replicate C":-0.97,"call":"inactive"}
{"Target gene":"PCED1B","pool no.":1,"mean z-score":0.4,"z-score, replicate A":0.28,"z-score, replicate B":0.2,"z-score, replicate C":0.73,"call":"inactive"}
{"Target gene":"ZW10","pool no.":1,"mean z-score":-0.39,"z-score, replicate A":-0.22,"z-score, replicate C":-0.56,"call":"inactive"}
{"Target gene":"CPT1B","pool no.":1,"mean z-score":-1.14,"z-score, replicate A":-0.96,"z-score, replicate B":-1.07,"z-score, replicate C":-1.38,"call":"inactive"}
{"Target gene":"GNB1","pool no.":1,"mean z-score":0.12,"z-score, replicate A":0.25,"z-score, replicate B":-0.05,"z-score, replicate C":0.16,"call":"inactive"}
{"Target gene":"NFATC2IP","pool no.":1,"mean z-score":-2.03,"z-score, replicate A":-2.34,"z-score, replicate B":-1.67,"z-score, replicate C":-2.09,"call":"inactive"}
{"Target gene":"LOC387932 (retired record)","pool no.":1,"mean z-score":0.46,"z-score, replicate A":0.71,"z-score, replicate B":0.55,"z-score, replicate C":0.12,"call":"inactive"}
{"Target gene":"PLXNA2","pool no.":1,"mean z-score":0.58,"z-score, replicate A":0.71,"z-score, replicate B":0.49,"z-score, replicate C":0.54,"call":"inactive"}
{"Target gene":"PLXNA2","pool no.":2,"mean z-score":1.37,"z-score, replicate A":1.17,"z-score, replicate B":1.71,"z-score, replicate C":1.23,"call":"inactive"}
{"Target gene":"FILIP1","pool no.":1,"mean z-score":0.29,"z-score, replicate A":0.5,"z-score, replicate B":0.43,"z-score, replicate C":-0.06,"call":"inactive"}
{"Target gene":"PSENEN","pool no.":1,"mean z-score":0.53,"z-score, replicate A":0.05,"z-score, replicate B":0.54,"z-score, replicate C":1.01,"call":"inactive"}
{"Target gene":"TAGAP","pool no.":1,"mean z-score":-1.04,"z-score, replicate A":-1.23,"z-score, replicate B":-0.97,"z-score, replicate C":-0.93,"call":"inactive"}
{"Target gene":"GASK1B","pool no.":1,"mean z-score":1.18,"z-score, replicate A":1.42,"z-score, replicate B":0.87,"z-score, replicate C":1.24,"call":"inactive"}
{"Target gene":"CNKSR2","pool no.":1,"mean z-score":0.68,"z-score, replicate A":0.69,"z-score, replicate B":0.65,"z-score, replicate C":0.7,"call":"inactive"}
{"Target gene":"LOC400865 (retired record)","pool no.":1,"mean z-score":0.86,"z-score, replicate A":0.81,"z-score, replicate B":0.58,"z-score, replicate C":1.19,"call":"inactive"}
{"Target gene":"VAMP8","pool no.":1,"mean z-score":0.18,"z-score, replicate A":0.09,"z-score, replicate B":0.15,"z-score, replicate C":0.29,"call":"inactive"}
{"Target gene":"HCN2","pool no.":1,"mean z-score":-0.9,"z-score, replicate A":-0.8,"z-score, replicate B":-1.17,"z-score, replicate C":-0.74,"call":"inactive"}
{"Target gene":"FBXW8","pool no.":1,"mean z-score":0.8,"z-score, replicate A":0.72,"z-score, replicate B":0.87,"z-score, replicate C":0.8,"call":"inactive"}
{"Target gene":"CDK5RAP2","pool no.":1,"mean z-score":-0.55,"z-score, replicate A":-1.11,"z-score, replicate B":-0.32,"z-score, replicate C":-0.24,"call":"inactive"}
